PubChem BioAssay AID1259414 | Drosophila RNAi Screening Center – 2018
Aim: 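Host factors increasing or decreasing Wolbachia levels in cultured fly cells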 (primary screen). Cells: Drosophila JW18 cells infected with Wolbachia. Reagents: long dsRNA against Drosophila genes, 0.25 µg dsRNA per well of a 384-well plate. Time to read-out: 5 days. Challenge: cells persistently infected with Wolbachia before knock-down; no added drug. Read-out: 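Imaged fluorescence in situ signal for Wolbachia 23S rRNA per DAPI-counted host cell, given as a robust z-score within each plate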. Direction: Wolbachia per cell robust z: higher = more Wolbachia per host cell than the plate typical. Call rule: 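Active if absolute robust z reaches 1.5 in two or more of three replicates, leaving out multi- or no-target dsRNAs, genes unexpressed in JW18 and A1 wells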.
The deposit covers about 24,000 reagents; this is a random part of those that have a named target and a result. Over the whole deposit, about 1,210 (5%) are marked active. 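Inactive calls also include excluded dsRNAs with several or no targets, genes unexpressed in JW18, and well A1, regardless of score.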 Entries without a mark were called inactive. Names joined by + are all predicted targets of the reagent.

| target | amplicon | Wolbachia per cell robust z, rep 1 | Wolbachia per cell robust z, rep 2 | Wolbachia per cell robust z, rep 3 |
| --- | --- | --- | --- | --- |
| Cbp20 (GeneID 42166) | DRSC16601 | -1.12 | 0.149 | -0.042 |
| Sgs3 (GeneID 39288) | DRSC11280 | -0.66 | -0.42 | 0.572 |
| Sgs3 (GeneID 39288) | DRSC28210 | 1.01 | -0.631 | -2.38 |
| Sgs3 (GeneID 39288) | DRSC38946 | -0.347 | -1.6 | -1.17 |
| CG15170 (GeneID 35160) | DRSC02471 | -0.248 | -0.355 | -0.452 |
| CG3860 (GeneID 37825) | DRSC04425 | 0.273 | -0.533 | 0.419 |
| Def (GeneID 36047) | DRSC07398 | 0.19 | 0.72 | -3.35 |
| GIIIspla2 (GeneID 31747) | DRSC18094 | 1.28 | -0.0464 | -3.62 |
| GIIIspla2 (GeneID 31747) | DRSC27426 | 0.682 | -0.038 | 0.314 |
| MICU3 (GeneID 42357) | DRSC13381 | -0.0507 | 0.516 | 0.0363 |
| MICU3 (GeneID 42357) | DRSC15613 | -0.523 | -0.633 | -0.403 |
| CG7886 (GeneID 41775) | DRSC16333 | -5.06 | 0.233 | 0.99 |
| hzg (GeneID 39748) | DRSC23382 | 1.59 | 0.129 | 0.537 |
| hzg (GeneID 39748) | DRSC39054 | -0.619 | 0.533 | -0.161 |
| CG30039 (GeneID 246411) | DRSC21794 | 0.875 | 0.566 | -0.101 |
| CG30039 (GeneID 246411) | DRSC29391 | -0.488 | 0.735 | -0.169 |
| CG6966 (GeneID 41816) | DRSC16156 | 0.294 | 0.969 | -0.849 |
| CG6966 (GeneID 41816) | DRSC24518 | 1.39 | 2.05 | -0.4 |
| png (GeneID 31084) | DRSC18582 | 0.219 | -1.47 | -1.05 |
| png (GeneID 31084) | DRSC26812 | 0.34 | -0.46 | 0.215 |
| CG14102 (GeneID 40156) | DRSC10103 | -4.37 | -1.06 | 0.48 |
| CG8066 (GeneID 41766) | DRSC16374 | 0.857 | -1.09 | 0.33 |
| CG8066 (GeneID 41766) | DRSC24633 | 0.34 | 0.311 | -0.873 |
| Dic61B (GeneID 38020) | DRSC08588 | 1.24 | 0.75 | 0.333 |
| Dic61B (GeneID 38020) | DRSC27636 | 0.354 | 2.12 | -0.833 |
| CG12075 (GeneID 31815) | DRSC17801 | 0.111 | -0.424 | -0.631 |
| CG12075 (GeneID 31815) | DRSC25257 | -0.896 | -0.022 | -0.0967 |
| Zip89B (GeneID 41975) | DRSC16128 | -0.078 | -0.159 | -0.234 |
| Zip89B (GeneID 41975) | DRSC29691 | -1.33 | -3.02 | -0.163 |
| kon (GeneID 35104) | DRSC02033 | 0.264 | 0.667 | 0.23 |
| Sp7 (GeneID 40918) | DRSC15461 | 0.171 | -0.0765 | 0.135 |
| CG1544 (GeneID 43689) | DRSC15036 | 0.255 | 0.532 | 0.419 |
| CG1907 (GeneID 43483) | DRSC15399 | 1.03 | 0.202 | -5.75 |
| Lsm10 (GeneID 36141) | DRSC06250 | 0.00556 | -0.795 | 0.473 |
| Mst98Cb (GeneID 43367) | DRSC16750 | -2.36 | 0.476 | 0.646 |
| Mst98Cb (GeneID 43367) | DRSC22495 | -0.0211 | 0.253 | 0.127 |
| Mst98Cb (GeneID 43367) | DRSC25707 | -0.53 | 0.59 | 0.205 |
| Scgalpha (GeneID 34135) | DRSC03076 | -0.869 | 0.945 | -0.863 |
| Scgalpha (GeneID 34135) | DRSC29625 | 0.0619 | 1.02 | 0.274 |
| Scgalpha (GeneID 34135) | DRSC41263 | -1.75 | -1.63 | -3.21 |
| CR33294 (GeneID 3772637) | DRSC22950 | -0.872 | -1.61 | -4.46 |
| bchs (GeneID 33819) | DRSC03126 | 2.19 | 0.0767 | 0.927 |
| CG12935 (GeneID 36134) | DRSC06248 | 1.01 | 0.162 | -0.506 |
| Sfp36F (GeneID 8674048) | DRSC41427 | 1.1 | 1.39 | 0.505 |
| CG11378 (GeneID 31060) | DRSC18627 | -0.128 | 0.181 | 0.309 |
| CG11378 (GeneID 31060) | DRSC29720 | 0.341 | 0.672 | 0.54 |
| CLS (GeneID 43104) | DRSC15642 | 0.0403 | -2.22 | 0.5 |
| CLS (GeneID 43104) | DRSC28289 | 0.452 | 0.0109 | 0.772 |
| p23 (GeneID 41173) | DRSC15158 | 1.05 | 1.06 | 1.07 |
| p23 (GeneID 41173) | DRSC27806 | 0.177 | 0.452 | 0.0109 |
| DnaJ-60 + CG42568 | DRSC04207 | -0.702 | 0.272 | 0.281 |
| DnaJ-60 + CG42568 | DRSC04611 | 0.17 | -0.339 | 0.401 |
| DnaJ-60 + CG42568 | DRSC27072 | -1.1 | -0.563 | 0.595 |
| Ccdc39 (GeneID 40595) | DRSC12286 | 0.653 | 0.574 | 0.475 |
| CG7768 (GeneID 39573) | DRSC10914 | 0.724 | 0.151 | 0.742 |
| CG31827 + CG18478 | DRSC01958 | 0.554 | -4.73 | 1.15 |
| CG11755 (GeneID 41031) | DRSC14374 | -3.83 | -0.215 | 0.731 |
| CG11755 (GeneID 41031) | DRSC26076 | 1.03 | 0.849 | 1.54 |
| CG5787 (GeneID 34684) | DRSC02895 | 0.929 | 1.32 | 1.75 |
| CG5787 (GeneID 34684) | DRSC28731 | -0.734 | 0.591 | -0.639 |
| CG5181 (GeneID 34018) | DRSC02825 | -1.06 | -0.17 | -0.46 |
| CG9903 (GeneID 32621) | DRSC20213 | 0.511 | 1.08 | -0.548 |
| CG7728 (GeneID 39904) | DRSC10907 | -0.974 | 0.192 | -2.92 |
| CG7728 (GeneID 39904) | DRSC28948 | 0.681 | 0.881 | 0.303 |
| AP-2mu (GeneID 42642) | DRSC14090 | 0.883 | -0.197 | 0.231 |
| AP-2mu (GeneID 42642) | DRSC28264 | 0.866 | 1.04 | 1.23 |
| CG31220 (GeneID 326126) | DRSC22248 | 0.146 | -1.19 | -0.498 |
| CG31220 (GeneID 326126) | DRSC24492 | 0.611 | 2.26 | 0.114 |
| CG33514 (GeneID 3346239) | DRSC08471 | -4.01 | -0.4 | -1.52 |
| CG33514 (GeneID 3346239) | DRSC08472 | -1.56 | -2.11 | -2.27 |
| CG33514 (GeneID 3346239) | DRSC21670 | 0.173 | 0.105 | -0.914 |
| Nepl20 (GeneID 43412) | DRSC14878 | -0.259 | -3.4 | -0.501 |
| CG3184 (GeneID 31608) | DRSC18289 | -0.521 | 0.886 | -0.417 |
| pcs (GeneID 36674) | DRSC07042 | 0.235 | -1.87 | -0.00424 |
| CG5506 (GeneID 39992) | DRSC10511 | -2.14 | -0.973 | 0.423 |
| CG13747 (GeneID 35907) | DRSC06418 | 0.776 | 0.561 | 0.843 |
| Dlip3 (GeneID 53579) | DRSC07401 | -2.94 | -5.24 | 0.0694 |
| Dlip3 (GeneID 53579) | DRSC29615 | 0.729 | -0.839 | 1.14 |
| pb (GeneID 40826) | DRSC12409 | -5.25 | -3.88 | -2.34 |
| pb (GeneID 40826) | DRSC12629 | 1.09 | -1.6 | 0.484 |
| pb (GeneID 40826) | DRSC25059 | 0.907 | -0.0547 | 0.443 |
| ProtB (GeneID 34867) | DRSC03373 | -0.975 | -3.14 | 0.528 |
| ProtB (GeneID 34867) | DRSC27427 | -2.52 | -2.16 | -0.289 |
| Daao1 (GeneID 36128) | DRSC06131 | 0.789 | -0.122 | -0.0246 |
| CG32147 (GeneID 251690) | DRSC09346 | 0.638 | -0.247 | -0.733 |
| CG32147 (GeneID 251690) | DRSC24225 | 0.696 | -0.0178 | 0.967 |
| CG3349 (GeneID 39623) | DRSC10359 | -1.56 | -0.673 | -0.374 |

Copied from the list:
Result for CG3184 (GeneID 31608) [DRSC18289] under “Wolbachia per cell robust z, rep 3”: -0.417
Result of CG30039 (GeneID 246411) [DRSC29391] under “Wolbachia per cell robust z, rep 3”: -0.169
CG14102 (GeneID 40156) [DRSC10103], Wolbachia per cell robust z, rep 3 → 0.48
Value for Dlip3 (GeneID 53579) [DRSC29615] under “Wolbachia per cell robust z, rep 3”: 1.14
Result of Sgs3 (GeneID 39288) [DRSC38946] in “Wolbachia per cell robust z, rep 2”: -1.6
CG11378 (GeneID 31060) [DRSC18627], Wolbachia per cell robust z, rep 1 = -0.128
